Changes are numbered by the printed parent chain.
B1: CR6342 (antibody, V domains shown)
VH: QVQLVQSGAEVKKPGSSVKVSCKASGGFFSSYAISWVRQAPGQGLEWMGGVIPIFRTANYAQNFQGRVTITADEFTSYMELSSLRSDDTAVYYCARLNYHDSGTYYNAPRGWFDPWGQGTLVTVSS
VL: DIQMTQSPDSLAVSLGEKATINCKSSQSILNSSNNKNYLAWYQQKPGQPPKLLIYWASTRESGVPDRFSGSGSGTDFTLTISSLQAEDVAVYYCQQYYSSPPTFGQGTKVEIKR
B2: CR6268 (antibody, V domains shown)
VH: QVQLVQSGAEVKKPGSSVKVSCKASGGTFSSYAISWVRQAPGQGLEWMGGIMGMFGTTNYAQKFQGRVTITADEFTSAAYMELRSLRSEDTAVYYCARSSGYYPEYFQDWGQGTLVTVSS
VL: QSVLTQPPSESVSPGQTASVTCSGHKLGDKYVSWYQQKPGQSPVLLIYQDNRRPSGIPERFIGSNSGNTATLTISGTQALDEADYYCQAWDSSTAVFGGGTKLTVLG
B3: CR6336 (antibody, V domains shown)
VH: B2 VH with V2M, M52F, T58A, R84S, R87G, V93M, E105Q
VL: EIVMTQSPGTLSLSPGQRATLSCRASQSVSSSYLAWYQQKPGQAPRLLMYGASSRATGIPDRFSGSGSGTDFTLTISRLEPEDFAVYYCQQYGSSSLTFGGGTKLEIKR
B4: CR6262 (antibody, V domains shown)
VH: QVQLQQSGAEVKKPGSSVKVSCKVSGVIFSGSAISWVRQAPGQGLEWMGGISPLFGTTNYAQKFQGRVTITADQSTNTTYMEVNSLRYEDTAVYFCARGPKYYSEYMDVWGKGTTVTVSS
VL: DIQMTQSPSSLSASVGDRVTITCRASQGISSYLAWYQQKPGKVPTLLIYDASTLRSGVPSRFSGSGSATDFTLTISSLQPEDVATYYCQRYNSAPPITFGQGTRLEIKR
B5: CR6334 (antibody, V domains shown)
VH: EVQLVETGAEVKKPGSSVKVPCKSSGSPFRSNAVSWVRQAPGQGLEWVGGILGVFGSPSYAQKFQGRVTITADESTNTVHMELRGLRSEDTAVYYCARGPTYYYSYMDVWGKGTTVTVSS
VL: SYVLTQPPSESVAPGQTARITCGGNNIGRNSVHWYQQKPGQAPVLVVYDDSDRPSGIPERFSGSKSGNTATLIISRVEVGDEADYYCQVWHSSSDHYVFGTGTKVTVLG
B6: CR6343 (antibody, V domains shown)
VH: QVQLVQSGAEVKKPGSSVKVSCKASGVTFSYYAMSWVRQAPGQGLEWMGGISPMFGTTTYAQKFQGRVTITADDSTSTAYMEVRSLRSEDTAVYYCARSSNYYDSVYDYWGQGTLVTVSS
VL: B5 VL with S1Q, Y2S, L4V, N25H, R29S, D50N, K65N, I73T, V79A, H91G
B7: CR6257 (antibody, V domains shown)
VH: QVQLVQSGAEVKKPGSSVKVSCKASGGPFRSYAISWVRQAPGQGPEWMGGIIPIFGTTKYAPKFQGRVTITADDFAGTVYMELSSLRSEDTAMYYCAKHMGYQVRETMDVWGKGTTVTVSS
VL: QSALTQPAAVSGSPGQSITISCTGTSSDVGGYNYVSWYQQHPGKAPKLMIYEVSNRPSGVSNRFSGSKSGNTASLTISGLQAEDEADYYCSSYTSSSTYVFGTGTKVTVLG
B8: CR6272 (antibody, V domains shown)
VH: QMQLVQSGAEVKKPGSSVKVSCKASGGTFSSYAITWVRQAPGQGLEWMGGIIGMFGSTNYAQNFQGRVTITADESTSTAYMELSSLRSEDTAVYYCARSTGYYPAYLHHWGQGTLVTVSS
VL: B7 VL with A8R, A9S, I18V, E52D, N55K, S61P, N62D, Y99H
B9: CR6325 (antibody, V domains shown)
VH: EVQLVESGAEVKKPGSSVKVSCKASGGTFSFYSMSWVRQAPGQGLEWMGGIIPMFGTTNYAQKFQGRVTITAVESTSTAYMEVSSLRSEDTAVYYCARGDKGIYYYYMDVWGKGTTVTVSS
VL: B7 VL with A9S, Y99L
B10: CR6332 (antibody, V domains shown)
VH: QVQLVQSGAEVKKPGSSVKVSCKASGGPFRNFAINWVRQAPGQGLEWMGGIIAVFGTTKYAHKFQGRVTITADDSTNTAYMELGSLKSEDTAVYYCARGPHYYSSYMDVWGEGTTVTVSS
VL: DIQLTQSPSSLSASVGDRVTITCRASQGISTYLAWYQQKPGKVPKLLIYAASTLQSGVPSRFSGSGSGTDFTLTISSLQPEDVATYYCQKYNSAPSFGPGTKVDIKR
B11: CR6307 (antibody, V domains shown)
VH: QVQLVQSGGGLVKPGGSLRLSCAASGFTFSSYSMNWVRQAPGKGLEWVSSISSSSSYIYYVDSVKGRFTISRDNAKNSLYLQMNSLRAEDTAVYYCARGGGSYGAYEGFDYWGQGTLVTVSS
VL: EIVLTQSPGTLSLSPGERATLSCRASQRVSSYLAWYQQKPGQAPRLLIYGASTRAAGIPDRFSGSGSGTDFTLTISRLEPEDSAVYYCQQYGRTPLTFGGGTKVEIKR

Molecular target: HA of BPL-inactivated virus preparation of strain A/New Caledonia/20/99 (H1N1) (influenza A virus A/New Caledonia/20/99 …)
Assay: ELISA, coated inactivated virus, IgG 5 µg/ml

Binder	OD 492 nm [OD 492 nm]
B1	1.32
B2	1.39
B3	1.09
B4	0.51
B5	1.13
B6	0.91
B7	1.34
B8	0.92
B9	1.09
B10	1.2
B11	0.23
